Test results: publication PMC11794977, “Inhibitory Potential and Binding Thermodynamics of Scyllatoxin‐Based BH3 Domain Mimetics Targeting Repressor BCL2 Proteins” (Journal of Molecular Recognition, 2025)

Protein sequences, listed by entry. Tags and fused reporters are not part of them.
UniProt P10415, whole entry, stated change not applied: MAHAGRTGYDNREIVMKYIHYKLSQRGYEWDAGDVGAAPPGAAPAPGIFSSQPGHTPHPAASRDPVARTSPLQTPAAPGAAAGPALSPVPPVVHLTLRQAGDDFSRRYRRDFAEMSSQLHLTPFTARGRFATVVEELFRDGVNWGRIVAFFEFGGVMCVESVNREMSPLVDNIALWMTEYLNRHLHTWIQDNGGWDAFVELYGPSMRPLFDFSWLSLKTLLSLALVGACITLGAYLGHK

Molecular target: Bcl‐2‐ΔTM (UniProt P10415)
Experiment: Isothermal titration calorimetry (ITC)
Details: 25°C, 3 trials
Experimental: All ITC experiments were performed in triplicate using a MicroCal 200 ITC instrument (Malvern Panalytical) at 25°C. To initiate ITC experiments, the sample cell was filled with 250 μL of binding buffer supplemented with 20 μM Bcl‐2‐ΔTM. Acetylated peptides were then diluted to a final concentration of 200 μM in binding buffer and injected into the sample cell at 2 μL volumes using a 6 s injection time and a 150 s delay between each injection. Data analysis was performed using MicroCal Origin software v7.0. Non‐linear curves were fit using Equation (3) adapted from the instrument manual: (3) ΔQ=nMtΔHVo/21+Xt/nMt+1/nKaMt−1+Xt/nMt+1/nKaMt^2−4Xt/nMt where, ΔQ is the heat content released or absorbed by each injection. ΔH is the enthalpy change of ligand binding and M t is bulk concentration of Bcl‐2‐ΔTM. V o is the cell volume of Bcl‐2‐ΔTM and K a is the affinity constant. X t is bulk concentration of peptide and n is the number of sites occupied by the peptide. Dissociation constants (K d) for all peptides were calculated by taking the reciprocal of the K a .
ΔG values were calculated from the Gibbs free energy Equation (4) using Origin‐fitted values of ΔH and program‐calculated values of ΔS. (4) ΔG=ΔΗ−ΤΔS

Compound: CC[C@H](NC(=O)[C@H](CO)NC(=O)CNC(C)=O)C(=O)N[C@@H](CCCCN)C(=O)N[C@@H](CCCCN)C(=O)N[C@@H](CC(C)C)C(=O)N[C@@H](CO)C(=O)N[C@@H](CC)C(=O)N[C@@H](CC)C(=O)N[C@@H](CC(C)C)C(=O)N[C@@H](CCCCN)C(=O)N[C@H]1CSSC[C@@H](C(=O)N[C@H](C(=O)N[C@@H](CCCCN)C(=O)N[C@@H](Cc2c[nH]cn2)C(N)=O)C(C)C)NC(=O)[C@H](CCC(=O)O)NC(=O)[C@H](CC)NC(=O)[C@H](CCCCN)NC(=O)[C@H](CC(=O)O)NC(=O)CNC(=O)[C@H]([C@@H](C)CC)NC(=O)[C@H](CC)NC(=O)[C@H](CCCCN)NC(=O)CNC(=O)[C@H](CC(C)C)NC(=O)[C@H](CC(C)C)NC(=O)CNC(=O)[C@H](CC(=O)O)NC(=O)CNC(=O)[C@H]([C@@H](C)CC)NC1=O [^AcScTx‐Bax^ΔΔ,12–28]
- n (number of sites) (20 μM Bcl‐2‐ΔTM in cell, 200 μM peptide injected, binding buffer pH 8.0, ± SD): 1.20 ± 0.02
- ΔG (binding buffer pH 8.0, calculated as ΔH − TΔS, ± SD): -8.38 ± 0.33 kcal/mol
- TΔS (binding buffer pH 8.0, ± SD): 2.81 ± 0.11 kcal/mol
- ΔH (binding buffer pH 8.0, ± SD): -5.57 ± 0.45 kcal/mol
